Entries after “also recorded” stand apart in the source; their conditions may differ.
Test: Dentine disc application with SEM/EDX examination
Parameters: species or system human

Which results are given for `O.O.O.O.O.O.O=[N+]([O-])[O-].O=[N+]([O-])[O-].O=[N+]([O-])[O-].[Gd+3]` [gadolinium nitrate, gadolinium nitrate hexahydrate, (Gd(NO3)3.6H2O)]?
tubule penetration depth compared with potassium oxalate (alcohol used as a solvent): tubule penetration depths greater than potassium oxalate; deposition on dentine surface and within / occlusion of dentinal tubules (SEM/EDX) (etched human dentine discs, 5-10 minutes application, rinsed, 1.5% to 6%): deposition of gadolinium on the surface of the dentine and with in the tubule; also recorded: promising results of dentinal occlusion; also recorded: deposits of gadolinium on dentinal surface and within tubule

Reference: patent US20070196288A1, “Method of treating periodontitis and of reducing dentinal sensitivity” (Research Foundation of the State University of New York, priority 2006, published 2007)
